This data set deals with T1, Pup(43-63)-Glu(AMC).
T1 chain: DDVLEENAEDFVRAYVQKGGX

B1: Dop-His6 (deamidase of Pup with histidine tag) (protein)
chain: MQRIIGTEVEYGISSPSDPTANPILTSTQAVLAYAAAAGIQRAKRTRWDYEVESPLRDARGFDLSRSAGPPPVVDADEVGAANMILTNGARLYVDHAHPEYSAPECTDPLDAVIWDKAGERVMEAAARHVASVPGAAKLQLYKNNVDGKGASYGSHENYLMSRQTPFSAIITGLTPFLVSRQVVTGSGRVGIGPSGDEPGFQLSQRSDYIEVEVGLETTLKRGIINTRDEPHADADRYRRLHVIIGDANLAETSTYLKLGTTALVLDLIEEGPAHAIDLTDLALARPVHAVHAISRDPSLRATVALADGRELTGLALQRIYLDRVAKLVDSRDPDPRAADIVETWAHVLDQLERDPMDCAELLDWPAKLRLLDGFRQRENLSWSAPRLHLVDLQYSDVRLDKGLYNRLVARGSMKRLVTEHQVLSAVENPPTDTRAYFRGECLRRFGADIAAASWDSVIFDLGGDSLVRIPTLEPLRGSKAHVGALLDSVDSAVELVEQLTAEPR
B1: the “hydrolytic activity (release of AMC, fluorescence)” value is reported as “Pup(43-63)-Glu(AMC) (1c) was not a substrate for Dop”.

(Values after US20130295595.)
